{"source": "PubChem BioAssay AID1259414 (Drosophila RNAi Screening Center, 2018)", "aim": "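Host factors increasing or decreasing Wolbachia levels in cultured fly cells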 (primary screen)", "cells": "Drosophila JW18 cells infected with Wolbachia", "knock-down reagent": "long dsRNA against Drosophila genes, 0.25 µg dsRNA per well of a 384-well plate", "time to read-out": "5 days", "treatment": "cells persistently infected with Wolbachia before knock-down; no added drug", "measured": "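Imaged fluorescence in situ signal for Wolbachia 23S rRNA per DAPI-counted host cell, given as a robust z-score within each plate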", "direction": "Wolbachia per cell robust z: higher = more Wolbachia per host cell than the plate typical", "call rule": "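Hit when robust z is 1.5 or more, or -1.5 or less, in at least two of three replicates; excludes dsRNAs with several or no targets, genes not expressed in JW18 and well A1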", "note": "In all, the deposit lists about 24,000 reagents; shown is an unselected part of those that have a named target and a result. Of all reagents, about 1,210 (5%) got an active call. 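Inactive calls also include excluded dsRNAs with several or no targets, genes unexpressed in JW18, and well A1, regardless of score.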 Reagents against one gene are numbered here. A plus sign joins genes that one reagent is predicted to hit."}
{"gene": "Pc (GeneID 40358)", "reagent": 1, "Wolbachia per cell robust z, rep 1": 0.218, "Wolbachia per cell robust z, rep 2": -0.919, "Wolbachia per cell robust z, rep 3": -0.766, "activity call": "inactive"}
{"gene": "LPCAT (GeneID 31899)", "reagent": 1, "Wolbachia per cell robust z, rep 1": 0.333, "Wolbachia per cell robust z, rep 2": 0.723, "Wolbachia per cell robust z, rep 3": -3.2, "activity call": "inactive"}
{"gene": "LPCAT (GeneID 31899)", "reagent": 2, "Wolbachia per cell robust z, rep 1": 0.483, "Wolbachia per cell robust z, rep 2": 0.496, "Wolbachia per cell robust z, rep 3": 0.428, "activity call": "inactive"}
{"gene": "Ttc19 (GeneID 35172)", "reagent": 1, "Wolbachia per cell robust z, rep 1": -7.72, "Wolbachia per cell robust z, rep 2": -0.602, "Wolbachia per cell robust z, rep 3": -0.138, "activity call": "inactive"}
{"gene": "Tyler + Shawn", "reagent": 1, "Wolbachia per cell robust z, rep 1": 0.327, "Wolbachia per cell robust z, rep 2": 0.15, "Wolbachia per cell robust z, rep 3": -0.928, "activity call": "inactive"}
{"gene": "CG33252 (GeneID 2768903)", "reagent": 1, "Wolbachia per cell robust z, rep 1": -0.963, "Wolbachia per cell robust z, rep 2": -0.505, "Wolbachia per cell robust z, rep 3": -0.367, "activity call": "inactive"}

Continued, starting with the last 2 of the part before.
{"gene": "Tyler + Shawn", "reagent": 1, "Wolbachia per cell robust z, rep 1": 0.327, "Wolbachia per cell robust z, rep 2": 0.15, "Wolbachia per cell robust z, rep 3": -0.928, "activity call": "inactive"}
{"gene": "CG33252 (GeneID 2768903)", "reagent": 1, "Wolbachia per cell robust z, rep 1": -0.963, "Wolbachia per cell robust z, rep 2": -0.505, "Wolbachia per cell robust z, rep 3": -0.367, "activity call": "inactive"}
{"gene": "CG42266 (GeneID 7354431)", "reagent": 1, "Wolbachia per cell robust z, rep 1": -1.23, "Wolbachia per cell robust z, rep 2": 0.3, "Wolbachia per cell robust z, rep 3": 0.789, "activity call": "inactive"}
{"gene": "CG42266 (GeneID 7354431)", "reagent": 2, "Wolbachia per cell robust z, rep 1": -1.63, "Wolbachia per cell robust z, rep 2": -1.43, "Wolbachia per cell robust z, rep 3": -0.738, "activity call": "inactive"}
{"gene": "CG42266 (GeneID 7354431)", "reagent": 3, "Wolbachia per cell robust z, rep 1": -1.11, "Wolbachia per cell robust z, rep 2": -6.89, "Wolbachia per cell robust z, rep 3": 1.51, "activity call": "inactive"}
{"gene": "CG42266 (GeneID 7354431)", "reagent": 4, "Wolbachia per cell robust z, rep 1": -2.58, "Wolbachia per cell robust z, rep 2": 0.0149, "Wolbachia per cell robust z, rep 3": -0.816, "activity call": "inactive"}
{"gene": "Lac (GeneID 36363)", "reagent": 1, "Wolbachia per cell robust z, rep 1": 0.827, "Wolbachia per cell robust z, rep 2": 0.646, "Wolbachia per cell robust z, rep 3": -0.733, "activity call": "inactive"}
{"gene": "CG32551 (GeneID 318085)", "reagent": 1, "Wolbachia per cell robust z, rep 1": -0.398, "Wolbachia per cell robust z, rep 2": 0.192, "Wolbachia per cell robust z, rep 3": 0.767, "activity call": "inactive"}
{"gene": "Ilp4 (GeneID 39152)", "reagent": 1, "Wolbachia per cell robust z, rep 1": -1.84, "Wolbachia per cell robust z, rep 2": 0.727, "Wolbachia per cell robust z, rep 3": 0.676, "activity call": "inactive"}
{"gene": "Ilp4 (GeneID 39152)", "reagent": 2, "Wolbachia per cell robust z, rep 1": 0.0421, "Wolbachia per cell robust z, rep 2": -0.345, "Wolbachia per cell robust z, rep 3": 0.284, "activity call": "inactive"}
{"gene": "metro (GeneID 36176)", "reagent": 1, "Wolbachia per cell robust z, rep 1": 0.0359, "Wolbachia per cell robust z, rep 2": 1.44, "Wolbachia per cell robust z, rep 3": -1.36, "activity call": "inactive"}
{"gene": "metro (GeneID 36176)", "reagent": 2, "Wolbachia per cell robust z, rep 1": -0.000792, "Wolbachia per cell robust z, rep 2": -0.8, "Wolbachia per cell robust z, rep 3": -0.247, "activity call": "inactive"}
{"gene": "metro (GeneID 36176)", "reagent": 3, "Wolbachia per cell robust z, rep 1": 0.322, "Wolbachia per cell robust z, rep 2": -0.135, "Wolbachia per cell robust z, rep 3": 0.0143, "activity call": "inactive"}
